Anti-infective test results gathered from many reports (values: NIAID ChemDB through PubChem).

All rows: tests in culture; organism: Herpes simplex virus 1; read-out: EC50

Conditions beyond the fields shown may differ between rows.

structure	cell line	strain	read by	result
Nc1nc(Cl)c2ncn([C@H]3CO[C@@H](CO)C3)c2n1	E6SM	B2006 (TK-)	cytopathic effect	200 µg/mL
CCCCCCCCCCCCCCCCCCOCCOP1(=O)CO[C@@H](Cn2ccc(N)nc2=O)CO1	MRC-5	-	-	0.005 µM
CCCCNc1cn([C@@H]2C[C@H](CO)[C@@H](O)C2)c(=O)[nH]c1=O	PRK	377	cytopathic effect	25 µg/mL
Nc1nc(=S)n([C@@H]2O[C@H](CO)[C@@H](O)[C@@H]2O)cc1F	RPMI8226	KOS	plaque count	288 µM
CC=NC(=N)c1nc(-c2ccc(C)cc2)n(COCCO)n1	E6SM	VMW 1837	cytopathic effect	>10 µg/mL
CCCCCCCCCCCCCCCCOP1(=O)CO[C@@H](Cn2ccc(N)nc2=O)CO1	MRC-5	-	-	3.1 µM
O=c1[nH]c(=O)n([C@@H]2O[C@H](COP(=O)(O)O)[C@@H](O)[C@@H]2O)cc1/C=C/Br	HELF	VR-3	plaque count	0.013 µg/mL
C=C(N=CC)c1nc(-c2ccc(C)cc2)n([C@@H]2O[C@H](CO)[C@@H](O)[C@H]2O)n1	E6SM	KOS	cytopathic effect	>40 µg/mL
Nc1nc(=O)n([C@@H]2O[C@H](CO)[C@@H](O)[C@@H]2F)cc1I	HELF	CHR-3	plaque count	0.015 µg/mL
O=c1[nH]c(=O)n(C2CC(CO)[C@H](O)C2)cc1I	PRK	KOS	cytopathic effect	0.1 µg/mL
Nc1nc2c(ncn2COC(CO)CO)c(=O)[nH]1	MRC-5	-	-	0.032 µM
Nc1ccn([C@H]2O[C@@H](CO)[C@H](O)[C@H]2F)c(=O)n1	VERO	F	plaque count	0.07 µM
O=c1[nH]c(=O)n([C@@H]2O[C@H](CO)[C@@H](O)[C@@H]2O)cc1/C=C/Br	VERO	WT-34	plaque count	0.17 µM
Cc1cn([C@H]2C[C@H](O)[C@@H](CO)O2)c(=S)[nH]c1=O	RPMI8226	KOS	plaque count	2.52 µM
O=C(c1ccncc1)n1c(-c2ccccc2[N+](=O)[O-])nc2ccccc21	-	KOS	-	>20 µg/mL
O=c1[nH]c(=O)n([C@H]2C[C@H](O)[C@@H](CO)O2)cc1/C=C/Br	VERO	F-ACV-C4	plaque count	>300 µM
O=c1[nH]c(=O)n([C@H]2C[C@H](O)[C@@H](CO)O2)cc1I	HELF	MP	plaque count	0.66 µg/mL
O=C(c1ccc([N+](=O)[O-])cc1)n1c(-c2ccccc2[N+](=O)[O-])nc2ccccc21	-	KOS	-	>100 µg/mL
Nc1nc(=S)n([C@@H]2O[C@H](CO)[C@@H](O)[C@@H]2O)cc1Cl	RPMI8226	KOS	plaque count	>341 µM
Nc1nc2c(ncn2[C@H]2CO[C@@H](CO)C2)c(=O)[nH]1	E6SM	KOS	cytopathic effect	2 µg/mL
O=c1[nH]c(=O)n([C@H]2C[C@@H](CO)[C@H](O)C2)cc1I	PRK	McIntyre	cytopathic effect	20 µg/mL
CC=NC(=N)c1nc(-c2ccc(OC)cc2)n(Cc2ccccc2)n1	E6SM	KOS	cytopathic effect	>40 µg/mL
Nc1nc(=S)n([C@@H]2O[C@H](CO)[C@@H](O)[C@@H]2O)cc1I	RPMI8226	KOS	plaque count	11.4 µM
CCCCCCCCCCCCCCCCOCCCOP(=O)(O)OCC(CO)CCn1cnc2c(=O)[nH]c(N)nc21	MRC-5	-	-	0.7 µM
Nc1nc(=O)n([C@@H]2CC[C@H](CO)O2)cc1F	VERO	VR-3	plaque count	18 µM
C=C(N=CC)c1nc(-c2ccccc2)n([C@@H]2O[C@H](CO)[C@@H](O)[C@H]2O)n1	E6SM	VMW 1837	cytopathic effect	>200 µg/mL
O=c1ccn([C@@H]2O[C@H](CO)[C@@H](O)[C@H]2O)c(=O)[nH]1	VERO	V3	plaque count	>1000 µM
Nc1nc(=O)n([C@@H]2O[C@H](CO)[C@@H](O)[C@@H]2F)cc1I	VERO	F-FIAU-C1	plaque count	11 µM
Nc1nc2c(ncn2CCCCO)c(=O)[nH]1	VERO	C42	plaque count	3 µM
Nc1nc2c(ncn2[C@@H]2C[C@H](CO)C3CC32)c(=O)[nH]1	VERO	-	cytopathic effect	1–10 µg/mL
O=c1[nH]c(=S)n([C@H]2C[C@H](O)[C@@H](CO)O2)cc1Cl	RPMI8226	KOS	plaque count	31 µM
Nc1ccnc(O[C@H]2CO[C@H](CO)[C@@H](O)C2)n1	E6SM	TK-/B2006	cytopathic effect	>20 µg/mL
O=c1ccn([C@@H]2O[C@H](CO)[C@@H](O)[C@@H]2F)c(=O)[nH]1	VERO	F	plaque count	0.014 µM
O=c1[nH]c(=O)n([C@H]2C[C@H](O)[C@@H](CO)O2)cc1I	PRK	VEX142	cytopathic effect	0.1 µg/mL
C=Cc1cn([C@H]2C[C@H](O)[C@@H](CO)O2)c(=O)[nH]c1=O	HELF	77	plaque count	0.08 µM
Nc1ncnc2c1ncn2[C@@H]1C[C@H](CO)[C@@H](O)[C@@H]1O	VERO	F-FAU-C2	plaque count	54 µM
O=c1[nH]c(=O)n(C2CC(CO)[C@@H](O)C2)cc1/C=C/Br	PRK	F	cytopathic effect	0.06 µg/mL
CSCc1cn([C@H]2C[C@H](O)[C@@H](CO)O2)c(=O)[nH]c1=O	PRK	VEX538	cytopathic effect	20 µg/mL
O=c1[nH]c(=O)n([C@H]2C[C@H](O)[C@@H](CO)O2)cc1/C=C/Br	VERO	77	plaque count	0.065 µM
Nc1nc2c(ncn2COC2COP(=O)(O)OC2)c(=O)[nH]1	HEF	-	cytopathic effect	1.69 µM
O=c1[nH]c(=O)n([C@H]2C[C@H](O)[C@@H](CO)O2)cc1I	HELF	77	plaque count	70 µM
COc1ccccc1-c1nc2ccccc2n1C(=O)c1ccncc1	-	KOS	-	>20 µg/mL
Nc1nc2c(ncn2COC(CO)CO)c(=O)[nH]1	MRC-5	ICI	plaque count	0.1 µM
CCCOc1nc(N)nc2c1ncn2[C@@H]1C[C@H](CO)C2CC21	VERO	-	cytopathic effect	1–10 µg/mL
Nc1ccn(C[C@H]2COP(=O)(O)CO2)c(=O)n1	MRC-5	-	plaque count	28.4 µM
Cc1cn([C@@H]2O[C@H](CO)[C@@H](O)[C@@H]2O)c(=O)[nH]c1=O	HELF	VR-3	plaque count	0.12 µg/mL
CC=NC(=N)c1nc(-c2cccc(C)c2)n(C/C=C/c2ccccc2)n1	E6SM	KOS	cytopathic effect	>4 µg/mL
CCc1cn([C@H]2C[C@H](O)[C@@H](CO)O2)c(=O)[nH]c1=O	HELF	77	plaque count	2.1 µM
O=C(c1ccccc1Br)n1c(-c2ccccc2[N+](=O)[O-])nc2ccccc21	-	KOS	-	>100 µg/mL
Nc1nc(=O)n([C@@H]2O[C@H](CO)[C@@H](O)[C@@H]2F)cc1I	HELF	77	plaque count	0.14 µM
Nc1ccn([C@H]2CO[C@H](CO)[C@@H](O)C2)c(=O)n1	E6SM	TK-/B2006	cytopathic effect	10 µg/mL
O=c1[nH]c(=O)n([C@H]2C[C@@H](CO)[C@H](O)C2)cc1/C=C/Br	PRK	McIntyre	cytopathic effect	10 µg/mL
O=C(c1ccc([N+](=O)[O-])cc1)n1c(-c2ccccc2)nc2ccccc21	-	KOS	-	>20 µg/mL
O=c1[nH]c(=O)n([C@@H]2O[C@H](CO)[C@@H](O)[C@@H]2O)cc1I	HELF	77	plaque count	70 µM
O=C(c1ccccc1Br)n1c(-c2ccc(O)cc2)nc2ccccc21	-	KOS	-	>100 µg/mL
Nc1nc(=S)n([C@H]2C[C@H](O)[C@@H](CO)O2)cc1Cl	MRC-5	KOS	plaque count	281 µM
O=Cc1cn([C@H]2C[C@H](O)[C@@H](CO)O2)c(=O)[nH]c1=O	PRK	KOS	cytopathic effect	2 µg/mL
C=C(N=CC)c1nc(-c2cccc(OC)c2)n(C2O[C@H](CO)[C@@H](O)[C@H](O)[C@H]2O)n1	E6SM	VMW 1837	cytopathic effect	300 µg/mL
Nc1nc(=S)n([C@H]2C[C@H](O)[C@@H](CO)O2)cc1Br	MRC-5	KOS	plaque count	21.2 µM
CC=NC(=N)c1nc(-c2ccccc2)n(Cc2ccccc2)n1	E6SM	KOS	cytopathic effect	>4 µg/mL
O=c1[nH]c(=S)n([C@H]2C[C@H](O)[C@@H](CO)O2)cc1Br	MRC-5	KOS	plaque count	1.21 µM
Nc1ncnc2c1ncn2C[C@H](O)CO	HSF	KOS	cytopathic effect	20 µg/mL
Nc1ncnc2c1ncn2[C@@H]1C=C(CO)[C@@H](O)[C@H]1O	E6SM	KOS	cytopathic effect	70 µg/mL
CC=NC(=N)c1nc(-c2cccc(C)c2)n(COCCO)n1	E6SM	KOS	cytopathic effect	>10 µg/mL

An empty or dashed field is not shown. a–b is a range or a potency band. ECn is the concentration giving n% inhibition of infection, replication or growth.